The record followed here is paper PMC9739877, “Discovery and Mechanistic Investigation of Piperazinone Phenylalanine Derivatives with Terminal Indole or Benzene Ring as Novel HIV-1 Capsid Modulators” (Molecules, 2022).

The subject of data set [1] is HIV-2 (ROD). The data set can be described thus: Anti-HIV-2 (ROD) activity in MT-4 cells, MTT assay. Type of data set: cell-based. Conditions: selectivity index CC50/EC50, HIV-2 ROD. The procedure: (§1) II. In vitro anti-HIV Assay in MT-4 Cells
(§2) Evaluation of the antiviral activity of the compounds against HIV in MT-4 cells was performed using the MTT assay as described below. Stock solutions (10 × final concentration) of test compounds were added in 25 µL volumes to two series of triplicate wells to allow simultaneous evaluation of their effects on mock- and HIV-infected cells at the beginning of each experiment. Serial 5-fold dilutions of test compounds were made directly in flat-bottomed 96-well microtiter trays using a Biomek 3000 robot (Beckman Instruments, Fullerton, CA). Untreated HIV- and mock-infected cell samples were included as controls. HIV stock (50 µL) at 100-300 CCID50 (50 % cell culture infectious doses) or culture medium was added to either the infected or mock-infected wells of the microtiter tray. Mock-infected cells were used to evaluate the effects of the test compound on uninfected cells to assess the test compounds' cytotoxicity. Exponentially growing MT-4 cells were centrifuged for 5 minutes at 220 g, and the supernatant was discarded. […]
(§3) cells/mL, and 50 µL volumes were transferred to the microtiter tray wells. Five days after infection, the viability of mock-and HIV-infected cells was examined spectrophotometrically using the MTT assay. The MTT assay is based on the reduction of yellow colored 3-(4,5-dimethylthiazol-2-yl)-2,5-diphenyltetrazolium bromide (MTT) (Acros Organics) by mitochondrial dehydrogenase activity in metabolically active cells to a blue-purple formazan that can be measured spectrophotometrically. The absorbances were read in an eight-channel computer-controlled photometer (Infinite M1000, Tecan), at two wavelengths (540 and 690 nm). All data were calculated using the median absorbance value of three wells. […]
(§4) was defined as the concentration of the test compound that reduced the absorbance (OD540) of the mock-infected control sample by 50%. The concentration achieving 50% protection against the cytopathic effect of the virus in infected cells was defined as the […]

Data set [2] has as its system HIV-1 (IIIB). The class given is cell-based. The note with it: selectivity index CC50/EC50, HIV-1 IIIB. As for the experimental part: as §1, §2, §3, §4

`COc1ccc(N(C)C(=O)[C@H](Cc2cc(F)cc(F)c2)NC(=O)CN2CCN(C(=O)Cc3c[nH]c4ccc(O)cc34)CC2=O)cc1` [F2-7e, (S)-3-(3,5-difluorophenyl)-2-(2-(4-(2-(5-hydroxy-1H-indol-3-yl)acetyl)-2-oxopiperazin-1-yl)acetamido)-N-(4-methoxyphenyl)-N-methylpropanamide]: in data set [1], the “SI ROD” value is on record as at most 2.65. Besides, in data set [2], the “SI IIIB” value is listed as below 1.
For `COc1ccc(N(C)C(=O)[C@H](Cc2cc(F)cc(F)c2)NC(=O)CN2CCN(C(=O)c3ccc(NC(C)=O)cc3)CC2=O)cc1` [F2-7g, (S)-2-(2-(4-(4-acetamidobenzoyl)-2-oxopiperazin-1-yl)acetamido)-3-(3,5-difluorophenyl)-N-(4-methoxyphenyl)-N-methylpropanamide], in that order: 1.02 and 1.11.
For `COc1ccc(N(C)C(=O)[C@H](Cc2ccccc2)NC(=O)CN2CCN(C(=O)Cc3c[nH]c4ccc(F)cc34)CC2=O)cc1` [7f, (S)-2-(2-(4-(2-(5-fluoro-1H-indol-3-yl)acetyl)-2-oxopiperazin-1-yl)acetamido)-N-(4-methoxyphenyl)-N-methyl-3-phenylpropanamide], in that order: 19.92 and 4.13.
For `COc1ccc(N(C)C(=O)[C@H](Cc2cc(F)cc(F)c2)NC(=O)CN2CCN(C(=O)Cc3c(C)[nH]c4ccccc34)CC2=O)cc1` [F2-7a, (S)-3-(3,5-difluorophenyl)-N-(4-methoxyphenyl)-N-methyl-2-(2-(4-(2-(2-methyl-1H-indol-3-yl)acetyl)-2-oxopiperazin-1-yl)acetamido)propenamide], in that order: 3.91 and 3.69.
In the case of `COc1ccc(N(C)C(=O)[C@H](Cc2ccccc2)NC(=O)CN2CCN(C(=O)c3ccc(NC(=O)C4CC4)cc3)CC2=O)cc1` [7i, (S)-N-(4-(4-(2-((1-((4-methoxyphenyl)(methyl)amino)-1-oxo-3-phenylpropan-2-yl)amino)-2-oxoethyl)-3-oxopiperazine-1-carbonyl)phenyl)cyclopropanecarboxamide], in data set [1], the “SI ROD” value is on record as 11.15. Also, in data set [2], the “SI IIIB” value was below 1.
For the compound `COc1ccc(N(C)C(=O)[C@H](Cc2ccccc2)NC(=O)CN2CCN(C(=O)Cc3c[nH]c4ccccc34)CC2=O)cc1` [7d, (S)-2-(2-(4-(2-(1H-indol-3-yl)acetyl)-2-oxopiperazin-1-yl)acetamido)-N-(4-methoxyphenyl)-N-methyl-3-phenylpropanamide], the “SI ROD” value in data set [1] was determined as 22.99. Moreover, in data set [2], the “SI IIIB” value stood at 7.51.
For `COc1ccc(N(C)C(=O)[C@H](Cc2ccccc2)NC(=O)CN2CCN(C(=O)c3ccc(NC(C)=O)cc3)CC2=O)cc1` [7g, (S)-2-(2-(4-(4-acetamidobenzoyl)-2-oxopiperazin-1-yl)acetamido)-N-(4-methoxyphenyl)-N-methyl-3-phenylpropanamide], in that order: above 1.16 and above 1.05.
For `COc1ccc(N(C)C(=O)[C@H](Cc2cc(F)cc(F)c2)NC(=O)CN2CCN(C(=O)Cc3c[nH]c4ccc(OC)cc34)CC2=O)cc1` [F2-7b, (S)-3-(3,5-difluorophenyl)-2-(2-(4-(2-(5-methoxy-1H-indol-3-yl)acetyl)-2-oxopiperazin-1-yl)acetamido)-N-(4-methoxyphenyl)-N-methylpropanamide], in that order: below 1 and below 1.
In the case of `COc1ccc(N(C)C(=O)[C@H](Cc2cc(F)cc(F)c2)NC(=O)CN2CCN(C(=O)c3ccc(NC(=O)C4CC4)cc3)CC2=O)cc1` [F2-7i, (S)-N-(4-(4-(2-((3-(3,5-difluorophenyl)-1-((4-methoxyphenyl)(methyl)amino)-1-oxopropan-2-yl)amino)-2-oxoethyl)-3-oxopiperazine-1-carbonyl)phenyl)cyclopropanecarboxamide], in data set [1], the “SI ROD” value came to 5.87. Further, the “SI IIIB” value in data set [2] turned out to be 6.17.
For `COc1ccc(N(C)C(=O)[C@H](Cc2cc(F)cc(F)c2)NC(=O)CN2CCN(C(=O)Cc3c[nH]c4ccc(F)cc34)CC2=O)cc1` [F2-7f, (S)-3-(3,5-difluorophenyl)-2-(2-(4-(2-(5-fluoro-1H-indol-3-yl)acetyl)-2-oxopiperazin-1-yl)acetamido)-N-(4-methoxyphenyl)-N-methylpropanamide], in that order: 3.23 and 2.78.
For `COc1ccc(N(C)C(=O)[C@H](Cc2cc(F)cc(F)c2)NC(=O)CN2CCN(C(=O)Cc3c[nH]c4ccccc34)CC2=O)cc1` [F2-7d, (S)-2-(2-(4-(2-(1H-indol-3-yl)acetyl)-2-oxopiperazin-1-yl)acetamido)-3-(3,5-difluorophenyl)-N-(4-methoxyphenyl)-N-methylpropanamide], in that order: 3.28 and 1.97.
For `COc1ccc(N(C)C(=O)[C@H](Cc2ccccc2)NC(=O)CN2CCN(C(=O)Cc3c[nH]c4ccc(O)cc34)CC2=O)cc1` [7e, (S)-2-(2-(4-(2-(5-hydroxy-1H-indol-3-yl)acetyl)-2-oxopiperazin-1-yl)acetamido)-N-(4-methoxyphenyl)-N-methyl-3-phenylpropanamide], in that order: above 1.12 and above 1.06.
For the compound `COc1ccc(N(C)C(=O)[C@H](Cc2cc(F)cc(F)c2)NC(=O)CN2CCN(C(=O)c3ccc(NC(=O)C(F)(F)F)cc3)CC2=O)cc1` [F2-7j, (S)-3-(3,5-difluorophenyl)-N-(4-methoxyphenyl)-N-methyl-2-(2-(2-oxo-4-(4-(2,2,2-trifluoroacetamido)benzoyl)piperazin-1-yl)acetamido)propenamide], in data set [1], the “SI ROD” value came to 9.09. Moreover, in data set [2], the “SI IIIB” value came to 10.95.
For `COc1ccc(N(C)C(=O)[C@H](Cc2cc(F)cc(F)c2)NC(=O)CN2CCN(C(=O)Cc3c[nH]c4ccc(Br)cc34)CC2=O)cc1` [F2-7c, (S)-2-(2-(4-(2-(5-bromo-1H-indol-3-yl)acetyl)-2-oxopiperazin-1-yl)acetamido)-3-(3,5-difluorophenyl)-N-(4-methoxyphenyl)-N-methylpropanamide], in that order: below 1 and below 1.
`COc1ccc(N(C)C(=O)[C@H](Cc2ccccc2)NC(=O)CN2CCN(C(=O)c3ccc(NS(C)(=O)=O)cc3)CC2=O)cc1` [7h, (S)-N-(4-methoxyphenyl)-N-methyl-2-(2-(4-(4-(methylsulfonamido)benzoyl)-2-oxopiperazin-1-yl)acetamido)-3-phenylpropanamide]: in data set [2], the “SI IIIB” value was above 1.05.
Turning to `COc1ccc(N(C)C(=O)[C@H](Cc2cc(F)cc(F)c2)NC(=O)CN2CCN(C(=O)c3ccc(NS(C)(=O)=O)cc3)CC2=O)cc1` [F2-7h, (S)-3-(3,5-difluorophenyl)-N-(4-methoxyphenyl)-N-methyl-2-(2-(4-(4-(methylsulfonamido)benzoyl)-2-oxopiperazin-1-yl)acetamido)propenamide], the “SI ROD” value in data set [1] is on record as above 1.04. The “SI IIIB” value in data set [2] is on record as above 1.18.
As for `COc1ccc(N(C)C(=O)[C@H](Cc2ccccc2)NC(=O)CN2CCN(C(=O)Cc3c(C)[nH]c4ccccc34)CC2=O)cc1` [7a, (S)-N-(4-methoxyphenyl)-N-methyl-2-(2-(4-(2-(2-methyl-1H-indol-3-yl)acetyl)-2-oxopiperazin-1-yl)acetamido)-3-phenylpropanamide], in data set [1], the “SI ROD” value is 13.90.
On to `COc1ccc(N(C)C(=O)[C@H](Cc2ccccc2)NC(=O)CN2CCN(C(=O)c3ccc(NC(=O)C(F)(F)F)cc3)CC2=O)cc1` [7j, (S)-N-(4-methoxyphenyl)-N-methyl-2-(2-(2-oxo-4-(4-(2,2,2-trifluoroacetamido)benzoyl)piperazin-1-yl)acetamido)-3-phenylpropanamide], for which the “SI ROD” value in data set [1] was above 13.08. The “SI IIIB” value in data set [2] is above 1.24.
For `COc1ccc(N(C)C(=O)[C@H](Cc2ccccc2)NC(=O)CN2CCN(C(=O)Cc3c[nH]c4ccc(Br)cc34)CC2=O)cc1` [7c, (S)-2-(2-(4-(2-(5-bromo-1H-indol-3-yl)acetyl)-2-oxopiperazin-1-yl)acetamido)-N-(4-methoxyphenyl)-N-methyl-3-phenylpropanamide], in that order: below 1 and below 1.
For `COc1ccc(N(C)C(=O)[C@H](Cc2ccccc2)NC(=O)CN2CCN(C(=O)Cc3c[nH]c4ccc(OC)cc34)CC2=O)cc1` [7b, (S)-2-(2-(4-(2-(5-methoxy-1H-indol-3-yl)acetyl)-2-oxopiperazin-1-yl)acetamido)-N-(4-methoxyphenyl)-N-methyl-3-phenylpropanamide], in that order: 6.15 and 7.15.
